In experiment [1] the target is Hemagglutinin (HA) of influenza A virus A/Solomon Islands/3/06 H1N1, on whole virions (Influenza A virus A/Solomon …).
Experiment [2] has as its target Hemagglutinin (HA) of influenza A virus A/Japan/305/57 H2N2, on whole virions (Influenza A virus A/Japan/305/1957 …).
Experiment [3] concerns the target T1, Hemagglutinin (HA) of influenza A virus A/Wisconsin/67/05 H3N2, on whole virions (Influenza A virus A/Wisconsin/67/2005 …).
T1 construct: whole, on cells
Put plainly: ELISA on coated inactivated whole virions; transfection supernatant, set 4.

The target in experiment [4] is T1, Hemagglutinin (HA) of influenza A virus …. Put plainly: ELISA on coated inactivated whole virions; transfection supernatant, set 5.
Experiment [5] addresses recombinant trimeric HA of H1N1 A/California/04/09 (Influenza A virus A/California/04/2009 …). Put plainly: SPR (ProteOn, GLM chip), HA-CA captured on anti-V5 surface, Fab in solution.
The target of experiment [6] is T1, Hemagglutinin (HA) of influenza A virus …. Put plainly: ELISA on coated inactivated whole virions; transfection supernatant, set 1.
The target is the same in experiment [7]. Kind of experiment: ELISA on coated inactivated whole virions; transfection supernatant, set 2.
The target is the same in experiment [8]. Kind of experiment: ELISA on coated inactivated whole virions; transfection supernatant, set 3.

“And” between values parts separate entries of the source, which are not always exact repeats. Identical values can stand only once.

B1: TCN-504 (3251_K17) (antibody, V domains shown)
VH: QVQLQESGPGLVKPSETLSLTCAVSGVSISNIDFYWGWIRQPPGKGLEWIGNIYYTGITFYNPSLSSRVAISIDTSKNQFSLTLTSVTAADTAMYYCARHYGDSEAINDAFDIWGQGTMLTVSS
VL: EIVMTQSPATLSVSPGERATLSCRASQSVGNSLAWYQQRPGQAPRLLIYGASTRATGIPPRFSGSGSGTEFTLTISSLQTEDFAVYYCQQYINWRPLSFGGGTKVEIK
As for B1, the “ELISA virus binding (OD450)” value in experiment [1] is 3.6 OD450; in experiment [2], 3.62 OD450 and 3.64 OD450 and 3.51 OD450 and 3.59 OD450; in experiment [3], 3.59 OD450; in experiment [4], 3.6 OD450.

B2: TCN-536 (5095_N01) (antibody, V domains shown)
VH: QVQLQQWGAGLLKPSETLSLTCAVYGGSFSVSGYYWSWIRQPPGRGLEWIGEISHGGSTNYNPSLKSRVTISVDTTKNQFSLRLSSVTAADTAVYYCARGTDPDTEVYCRVGNCAAFDYWGQGSLVTVSS
VL: EIILAQSPGTLSLSPGERATLSCRASQFVSTRSLAWYQQRPGQAPRLLIYGASSRATGIPDRFSGSGSGTDFTLTISRLEPEDFAVYYCQHYGYSPRYAFGQGSKVEIK
Regarding B2, the “ELISA virus binding (OD450)” value in experiment [2] amounted to 0.06 OD450; in experiment [3], 3.61 OD450.

B3: Fab fragment of TCN-536 (5095_N01) (Fab, V domains shown)
VH: B2 VH
VL: B2 VL
For B3, the binding result in experiment [5] is on record as “no binding (tested: 50 nM as the highest Fab concentration)”.

B4: TCN-523 (5248_A17) (antibody, V domains shown)
VH: QVQLVQSGAEVKKPGSSVKVSCKASGGSFSNYAFSWVRQAPGQGLEWMGGTIPLLGTTNYAQKFQGRVTISADQFTSTAYMELGSLRSEDTAVYYCTRRKMTTAFDSWGQGTLVTVSS
VL: QPVLTQPPSASASLGASVTLTCTLSSAYSNYKVDWYQQRPGKGPRFVMRVGTGGIVGSKGDGIPDRFSVLGSGLNRYLTIKNIQEEDESDYHCGADHGSGSNFVSPYVFGGGTKLTVL
As to B4, the “ELISA virus binding (OD450)” value in experiment [2] was 1.69 OD450 and 1.39 OD450 and 3.47 OD450 and 1.73 OD450 and 2.56 OD450; in experiment [6] it was 0.09 OD450; in experiment [7], 0.09 OD450; in experiment [8], 0.15 OD450; in experiment [3], 0.09 OD450; in experiment [4] it was 0.14 OD450.

B5: TCN-534 (5249_B02) (antibody, V domains shown)
VH: QVQLVQSGAEVKKPGSSVKVSCRESGGTFNGYTITWVRQAPGQGLEWMGGIIPMMGTVNYAQKLQGRVTITTDYFTKTAYMDLNNLRSEDTAMYYCVKIRYTGQQLLWGQGTLVTVSS
VL: DIQMTQSPSTLSASIGDRVTITCRASQSIASWLAWYQQKPGKAPKLLIYEAVNLESGVPSRFSGSGSGTDFTLTISSLQPDDFATYFCQHYGTISQTFGGGTKVEIK
As for B5, the “ELISA virus binding (OD450)” value in experiment [1] worked out at 3.5 OD450; in experiment [2], 2.45 OD450; in experiment [3], 0.08 OD450.

(Values after patent US20150086555A1 (THERACLONE SCIENCES, published 2015).)
